Test results as given in US20250387458A1, “COACTIVE COMBINATIONS OF ANTIMICROBIALS WITH DISPERSINB” (KANE BIOTECH INC., priority 2020, published 2025).

Key:
DspB [1] = test: Compatibility between antimicrobials or antibiotics and DspB, enzymatic assay in buffer (Method 4); format: biochemical, Aggregatibacter actinomycetemcomitans; conditions: 100 μg/mL DspB; for Time DspB was active in the presence of the antimicrobial, enzymatic assay: antimicrobial concentration per figure legend
Description: Method 4: Method to Test Compatibility Between Antimicrobials or Antibiotics and DspB Using Enzymatic Assay
DspB (200 μg/mL) and antimicrobial agent/antibiotic stocks were prepared in respective buffers. 10 mM paranitrophenol (PNP) in 400 mM sodium carbonate, and the buffer (same DspB stock) was used as the standard solution, and negative control, respectively. DspB stock and antimicrobial stock were mixed in equal proportions, and then 4×5 μl samples were taken at defined time points (0, 5, 10, 20, 30, 60, and 120 min) and used to measure the DspB enzyme activity. DspB enzymatic activity was measured using β-N-Acetylglucosaminidase assay kit from Sigma (product code CS0780) in 96-well microtiter plate following the manufacturer's instructions. The plate was incubated for 30 minutes before terminating the reaction. Data analysis was done in Excel. Student T test (paired) was performed for each time point separately using DspB activity in mixture and in control sample as two set of variables.

DspB [2] = test: Compatibility between antimicrobials or antibiotics and DspB in gel, enzymatic assay (Method 6); format: biochemical, Aggregatibacter actinomycetemcomitans; conditions: PF127 wound gel; 100 μg/mL DspB
Description: Method 6: Method to Test Compatibility Between Antimicrobials or Antibiotics and DspB in Gel Using Enzymatic Assay
DspB gel containing 200 μg/ml DspB, 16% […] (PF127), 50 mM Phosphate buffer or citrate, 100 mM NaCl, pH 5.9, and 2× concentrated antimicrobial agent/antibiotics in 16% Poloxamer 405, 50 mM Phosphate buffer, 100 mM NaCl, pH 5.9 were mixed in equal proportions. 4×5 μL aliquots were withdrawn at 0, 5, 10, 20, 30, 60, and 120 min for measurement of DspB enzymatic activity. DspB enzymatic activity was measured using β-N-acetylglucosaminidase assay kit from Sigma (product code CS0780) in 96-well microtiter plate following the manufacturer's instructions. The plate was incubated for 30 minutes before terminating the reaction. Data analysis was done in Excel. Student T test (paired) was performed for each time point separately using DspB activity in mixture and in control sample as two set of variables. […]

S. epidermidis biofilm = test: Compatibility between antimicrobials or antibiotics and DspB, biofilm dispersal assay in buffer (Method 3); format: cell-based, Staphylococcus epidermidis; conditions: mixture stored at 37° C., 20 μg/ml DspB, antimicrobial concentration per figure legend
Description: Method 3: Method to Test Compatibility Between Antimicrobials or Antibiotics and DspB Using Biofilm Dispersal Assay
S. epidermidis biofilm was grown in 96-well plate and washed three times using sterile water to remove planktonic cells. Antimicrobials or antibiotics and DspB formulations were prepared in 50 mM phosphate or citrate buffer and stored at 37° C. for 2 h and used for treating biofilm at 0 and 2 h. Biofilm was treated using antimicrobials or antibiotics and DspB formulations for 10 min. After treatments, solutions were removed and washed 3 times to remove dispersed biofilm. Remaining biofilms in 96-well plates were stained using Crystal violet, unbound crystal violet was removed by washing the wells with sterile water, the biofilm bound crystal violet was eluted using 33% acetic acid, and the absorbance at 620 nm was taken using a microwell plate reader. Percent biofilm removal was calculated. Data was analyzed using ANOVA and Tukey's test.

Row | Structure (SMILES) | Time DspB was active in the presence of the antimicrobial, enzymatic assay (DspB [1]) | Time by which DspB lost its activity in the presence of the antimicrobial, enzymatic assay (DspB [1]) [h] | Time DspB was active in the presence of the antimicrobial, enzymatic assay (DspB [2]) | Time DspB retained its activity in the presence of the antimicrobial, biofilm dispersal assay (S. epidermidis biofilm) | Time DspB retained its activity in the presence of the antimicrobial, biofilm dispersal assay (S. epidermidis biofilm; listed as gentamicin sulfate) [h]
1 | CO[C@H]1/C=C/O[C@@]2(C)Oc3c(C)c(O)c4c(O)c(c(/C=N/N5CCN(C6CCCC6)CC5)c(O)c4c3C2=O)NC(=O)/C(C)=C\C=C\[C@H](C)[C@H](O)[C@@H](C)[C@@H](O)[C@@H](C)[C@H](OC(C)=O)[C@@H]1C [rifapentine] | up to 2 h | – | – | – | –
2 | CCCCCCCCN=c1ccn(CCCCCCCCCCn2ccc(=NCCCCCCCC)cc2)cc1.Cl.Cl [Octenidine dihydrochloride, octenidine dihydrochloride] | up to 2 h | ≤ 2 | up to 2 h | – | –
3 | C/C(=C\C(=O)OCCCCCCCCC(=O)O)C[C@@H]1OC[C@H](C[C@@H]2O[C@H]2[C@@H](C)[C@H](C)O)[C@@H](O)[C@H]1O [Mupirocin] | up to 2 h | – | up to 2 h | – | –
4 | CNC1C(O)[C@@H](O[C@H]2C(N)C[C@H](N)C(O[C@H]3OC([C@@H](C)N)CCC3N)C2O)OC[C@]1(C)O (stereo partly shown) [Gentamicin sulfate] | up to 2 h | – | up to 2 h | up to 2 h | ≤ 2
5 | Cc1ncc([N+](=O)[O-])n1CCO [Metronidazole] | up to 2 h | – | up to 2 h | up to 2 h | –

Structures can show the parent of a compound that is named as a salt.
